Measured values from several laboratories, pooled; numbers as filed in NIAID ChemDB.

Common to all: target-level tests

Two numbers with a dash give a range or band. Percent inhibition refers to the dose given; in toxicity tests it is the harm to the cells. Blank or dashed fields: not listed here. Conditions beyond the fields shown may differ between rows. ICn: concentration for n% inhibition.

compound | read by | tested at | protein | species | read-out | strain | value
Cc1ccc(Oc2ccccc2)c(O)c1 | - | - | Enoyl reductase | Mycobacterium tuberculosis | Ki | - | 4.2 µM
O=C(O)[C@]1(O)C=C(c2ccc3ccoc3c2)[C@@H](O)[C@H](O)C1 | - | - | Type II dehydroquinase | Mycobacterium tuberculosis | IC50 | - | 0.97 µM
Cc1cn([C@@H]2O[C@H](CO)[C@@H](CN)[C@H]2F)c(=O)[nH]c1=O | - | - | Thymidine monophosphate kinase | Mycobacterium tuberculosis | Ki | H37Rv | >1000 µM
CCCCCCCc1ccc(Oc2ccccc2)c(O)c1 | - | - | Enoyl reductase | Mycobacterium tuberculosis | IC50 | - | 0.005 µM
O=c1sn(-c2ccccc2C(F)(F)F)c(=O)n1CC1CC1 | HPLC | - | Alanine racemase | Mycobacterium smegmatis | IC50 | mc2155 | 16.6 µM
OC[C@H]1NC[C@@H](F)[C@@H]1O | - | - | Arabinofuranosyltransferase | Mycobacterium tuberculosis | IC50 | - | >4000 µM
CCCCCCCCCCCC[C@@H]1OC(=O)[C@H](COCc2ccccc2)NC(=O)[C@H](C(C)O)NC(=O)[C@H](C(C)C)NC(=O)[C@H]1C | - | - | Protein tyrosine phosphatase A | Mycobacterium tuberculosis | IC50 | - | >30 µM
NC(=O)c1cnccn1 | - | - | Fatty acid synthase I | Mycobacterium smegmatis | IC50 | - | >2000 µg/mL
O=c1[nH]c(=O)c2c([nH]1)n(C[C@H](O)[C@H](O)[C@H](O)CO)c(=O)n2CCCO | - | - | Lumazine synthase | Mycobacterium tuberculosis | Ki | - | 2.6 µM
CC(C)[C@H]1CO[C@]23CCN(Cc4ccc(Cl)c(C(F)(F)F)c4)C[C@H]2CCC(=O)N13 | resazurin | - | NADH dehydrogenase | Mycobacterium tuberculosis | IC50 | - | <0.1 µM
Cc1ccc(C)n1-c1ccc(C(=O)O)cc1 | - | - | Protein tyrosine phosphatase A | Mycobacterium tuberculosis | Ki | - | 8 µM
O=C1C=CC(O)(c2ccc3ccccc3c2)C=C1 | - | - | Thioredoxin reductase | Mycobacterium tuberculosis | IC50 | H37Rv | 271 µM
Cc1ccc(-c2cn(C[C@@H](O)COc3ccc4c(c3)OC3(CCCCC3)CC4=O)nn2)cc1 | gel | 30 µM | DNA gyrase | Mycobacterium tuberculosis | inhibition | - | 47%
Cc1cn([C@@H]2O[C@H](COP(=O)([O-])[O-])[C@@H](CN=[N+]=[N-])[C@H]2O)c(=O)[nH]c1=O | - | - | Thymidine monophosphate kinase | Mycobacterium tuberculosis | Ki | - | >1000 µM
NNC(=O)c1ccncc1 | - | - | Isocitrate lyase | Mycobacterium tuberculosis | IC50 | H37Rv | 1000 µM
O=C1C=CC(O)(c2ccccn2)C=C1 | - | - | Thioredoxin reductase | Mycobacterium tuberculosis | IC50 | H37Rv | 861 µM
CCCCCCCCO[C@H]1O[C@H](CO[C@H]2O[C@H](CN(CC3CCCCC3)CC3CCCCC3)[C@@H](O)[C@@H]2O)[C@@H](O)[C@@H]1O | - | - | Arabinofuranosyltransferase | Mycobacterium tuberculosis | IC50 | H37Ra | 1560 µM
C=CC(C)(C)c1c(OC)oc(-c2ccccc2)cc1=O | absorbance | 100 µM | MurE | Mycobacterium tuberculosis | inhibition | - | 7%
CO[C@H]1/C=C/O[C@@]2(C)Oc3c(C)c(O)c4c(=O)c(c5oc6cc(N7CCN(CC(C)C)CC7)cc(=O)c6nc5c4c3=C2O)NC(=O)/C(C)=C\C=C\[C@H](C)[C@H](O)[C@@H](C)[C@@H](O)[C@@H](C)[C@H](OC(C)=O)[C@@H]1C | - | - | RNA polymerase | Mycobacterium avium | IC50 | N-265 | <0.5 µg/mL
O=C1NC(=O)C2C(N1)N(C[C@H](O)[C@H](O)[C@H](O)CO)C(=O)N2CCCCCCOP(=O)(O)O | - | - | Lumazine synthase | Mycobacterium tuberculosis | Ki | - | 170 µM
Cc1cn([C@@H]2O[C@H](CO)[C@H]3CNC(=S)O[C@H]32)c(=O)[nH]c1=O | - | - | Thymidine monophosphate kinase | Mycobacterium tuberculosis | Ki | - | 150 µM
COc1c(N2CCN(Cn3c(O)c(N=NC(=O)c4ccncc4)c4ccccc43)C(C)C2)c(F)cc2c(=O)c(C(=O)O)cn(C3CC3)c12 | - | - | Gyrase | Mycobacterium tuberculosis | IC50 | - | 4 µM
O=C(O)c1c2n(c3cc(N4CCC(O)(c5ccc(Cl)cc5)CC4)c([N+](=O)[O-])cc3c1=O)CS2 | gel | - | DNA gyrase | Mycobacterium smegmatis | IC50 | ATCC 14468 MC2 | >50 µg/mL
CCCCCCCCO[C@H]1O[C@H](CO[C@H]2O[C@H](CNS(=O)(=O)c3ccc(C)cc3)[C@@H](O)[C@@H]2O)[C@@H](O)[C@@H]1O | - | - | Arabinofuranosyltransferase | Mycobacterium tuberculosis | IC50 | H37Ra | 1820 µM
C[C@H]1COC2(CCN(c3nc(=O)c4cc(C(F)(F)F)cc([N+](=O)[O-])c4s3)CC2)O1 | fluorescence / absorbance | - | Cytochrome P450 2D6 | Mycobacterium tuberculosis | IC50 | - | 2.21 µM
CCCCCCCCCCCC[C@H]1OC(=O)[C@H](COCc2ccccc2)NC(=O)[C@H](C(C)O)NC(=O)[C@H](C(C)C)NC(=O)[C@@H]1C | - | - | Protein tyrosine phosphatase A | Mycobacterium tuberculosis | IC50 | - | >30 µM
CC(C)[C@H]1CO[C@]23CCN(Cc4cc5ccccc5n4C)C[C@H]2CCC(=O)N13 | resazurin | - | NADH dehydrogenase | Mycobacterium tuberculosis | IC50 | - | <0.1 µM
COc1cc(Cc2cnc(N)nc2N)cc(OC)c1OCCCNc1ccc(S(=O)(=O)c2ccc(N)cc2C)cc1 | - | - | Folate biosynthesis | Mycobacterium leprae | IC50 | - | 10.4 µM
Oc1ccccc1Oc1ccc2ccccc2c1 | - | - | Enoyl reductase | Mycobacterium tuberculosis | IC50 | - | 12 µM
OC[C@H](O)[C@H]1NC[C@H](F)[C@H]1O | - | - | Arabinofuranosyltransferase | Mycobacterium tuberculosis | IC50 | - | >4000 µM
CCCOc1ccc(OCCC)c(NCc2cnc3nc(N)nc(N)c3c2C)c1 | - | - | Dihydrofolate reductase | Mycobacterium avium complex | IC50 | - | 0.01 µM
O=c1sn(-c2ccc([N+](=O)[O-])cc2Cl)c(=O)n1CC1CC1 | HPLC | - | Alanine racemase | Mycobacterium tuberculosis | IC50 | H37Rv | <0.03 µM
C=C/C(C)=C/[C@@]1(C)SC(=O)C(C)=C1O | - | - | FAS-II synthetase | Mycobacterium smegmatis | IC50 | - | 60 µg/mL
O=C(O)c1cn2c(n1)CN(c1cc3c(cc1F)c(=O)c(C(=O)O)c1n3CS1)CC2 | gel | - | DNA gyrase | Mycobacterium smegmatis | IC50 | ATCC 14468 MC2 | 15 µg/mL
CC(C)(C)OC(=O)N1CCC2(CC1)CC(=O)c1ccc(OC[C@H](O)Cn3cc(-c4ccccc4)nn3)cc1O2 | gel | 30 µM | DNA gyrase | Mycobacterium tuberculosis | inhibition | - | 51%
O=c1[nH]c(=O)c2c([nH]1)n(C[C@H](O)[C@H](O)[C@H](O)CO)c(=O)c(=O)n2CCCCCOP(=O)(O)O | - | - | Lumazine synthase | Mycobacterium tuberculosis | Ki | - | 0.012 µM
CCCCCCCCO[C@H]1O[C@H](CO[C@H]2O[C@H](CN=[N+]=[N-])[C@@H](O)[C@@H]2O)[C@@H](O)[C@@H]1O | - | - | Arabinofuranosyltransferase | Mycobacterium tuberculosis | IC50 | H37Ra | 2930 µM
c1ccc(CSc2nnc3c4ccccc4c4ccccc4c3n2)cc1 | - | - | Thiamin phosphate synthase | Mycobacterium tuberculosis | IC50 | - | 100 µg/mL
O=C(O)[C@]1(O)C=C(c2ccccc2)[C@@H](O)[C@H](O)C1 | - | - | Type II dehydroquinase | Mycobacterium tuberculosis | Ki | - | 1 µM
O=C1CSC(=O)N1 | - | - | N-acetyltransferase | Mycobacterium smegmatis | IC50 | - | >100 µM
COc1c(N2CCN(Cn3c(O)c(N=NC(N)=O)c4ccccc43)C(C)C2)c(F)cc2c(=O)c(C(=O)O)cn(C3CC3)c12 | - | - | Gyrase | Mycobacterium tuberculosis | IC50 | - | 3 µM
COc1cc(CCc2cnc3nc(N)nc(N)c3c2C)cc(OC)c1 | - | - | Dihydrofolate reductase | Mycobacterium avium complex | IC50 | - | 0.0015 µM
Cn1cc(/C=C2/C(=O)N3C(C(=O)[O-])CSC23)nn1.[Na+] | - | - | Beta-lactamase | Mycobacterium tuberculosis | IC50 | TB3 | 0.0003 µg/mL
CCCCCc1ccc(-c2cn(C[C@@H](O)COc3ccc4c(c3)OC3(CCCCC3)CC4=O)nn2)cc1 | gel | 30 µM | DNA gyrase | Mycobacterium tuberculosis | inhibition | - | 46%
Cc1cc(=O)n([C@@H]2O[C@H](CO)C3CC(=S)OC32)c(=O)[nH]1 | - | - | Thymidine monophosphate kinase | Mycobacterium tuberculosis | Ki | - | 8 µM
C[C@]1(Cn2ccnn2)[C@H](C(=O)O)N2C(=O)C[C@H]2S1(=O)=O | - | - | Beta-lactamase | Mycobacterium tuberculosis | IC50 | TB2 | 1 µg/mL
NS(=O)(=O)OC1[C@H](O)[C@H](O)C(O)[C@H](O)[C@H]1O | - | 1000 µM | Phosphatidylinositol phosphate synthase | Mycobacterium bovis | inhibition | - | 16%
CC(C)[C@H]1CO[C@]23CCN(Cc4ccc(C(F)(F)F)cc4)C[C@H]2CC(=O)N13 | resazurin | - | NADH dehydrogenase | Mycobacterium tuberculosis | IC50 | - | 0.1–1 µM
Cc1ccc(C)n1-c1ccc(C(=O)O)c(Cl)c1 | - | - | Protein tyrosine phosphatase A | Mycobacterium tuberculosis | Ki | - | 11 µM
Cc1noc(C)c1-n1sc(=O)n(-c2ccc(F)cc2)c1=O | HPLC | - | Alanine racemase | Mycobacterium smegmatis | IC50 | mc2155 | 68.01 µM
OC1C(O)C(O)C(O)C(O)C1O | - | 1000 µM | Phosphatidylinositol phosphate synthase | Mycobacterium bovis | inhibition | - | -2%
Cc1cc(=O)n([C@@H]2O[C@H](CO)C3CNC(=S)NC32)c(=O)[nH]1 | - | - | Thymidine monophosphate kinase | Mycobacterium tuberculosis | Ki | - | 21 µM
Cc1ccc(C(F)(F)F)cc1CNCc1cc(C(=N)C(C)C)c(Nc2ccccc2)[nH]c1=O | fluorescence | - | Decaprenylphosphoryl-D-ribose oxidase | Mycobacterium tuberculosis | IC50 | - | <0.005 µM
Cc1cn([C@@H]2C[C@H](O)[C@@H](CNC(=S)Nc3ccc(Cl)c(C(F)(F)F)c3)O2)c(=O)[nH]c1=O | absorbance | - | TMPKmt | Mycobacterium tuberculosis | Ki | - | 0.6 µM
Oc1ccccc1Oc1ccccc1 | - | - | Enoyl reductase | Mycobacterium tuberculosis | Ki | - | 7 µM
O=C1C=CC(O)(c2ccccc2)C=C1 | - | - | Thioredoxin reductase | Mycobacterium tuberculosis | IC50 | H37Rv | 971 µM
O=C(O)[C@]1(O)C=C(c2csc3ccccc23)[C@@H](O)[C@H](O)C1 | - | - | Type II dehydroquinase | Mycobacterium tuberculosis | IC50 | - | 13.2 µM
COC1(c2nc3ccccc3s2)C=CC(=NS(=O)(=O)c2ccc(C)cc2)C=C1 | - | - | Thioredoxin reductase | Mycobacterium tuberculosis | IC50 | H37Rv | >1000 µM
COc1c(N2CCN(Cn3c(O)c(N=NC(=O)c4ccncc4)c4cc(Cl)ccc43)C(C)C2)c(F)cc2c(=O)c(C(=O)O)cn(C3CC3)c12 | - | - | Gyrase | Mycobacterium tuberculosis | IC50 | - | 5 µM
N#CCC[C@H]1O[C@@H](n2cc(CO)c(=O)[nH]c2=O)C[C@@H]1O | binding / absorbance | - | TMPKmt | Mycobacterium tuberculosis | Ki | - | >2600 µM
O=C(O)[C@]1(O)C=C(c2ccc3ccsc3c2)[C@@H](O)[C@H](O)C1 | - | - | Type II dehydroquinase | Mycobacterium tuberculosis | IC50 | - | 0.85 µM
Cc1noc(C)c1-n1sc(=O)n(CC2CC2)c1=O | HPLC | - | Alanine racemase | Mycobacterium tuberculosis | IC50 | H37Rv | 1.46 µM
COc1c(N2CCN(Cn3c(O)c(N=NC(N)=O)c4cc(Cl)ccc43)C(C)C2)c(F)cc2c(=O)c(C(=O)O)cn(C3CC3)c12 | - | - | Gyrase | Mycobacterium tuberculosis | IC50 | - | 4 µM
Cn1c(=O)sn(-c2ccccc2)c1=O | HPLC | - | Alanine racemase | Mycobacterium smegmatis | IC50 | mc2155 | 25.53 µM
Cc1cc(O)c(C(C)C)cc1N=Cc1cc([N+](=O)[O-])ccc1O | - | - | Thiamin phosphate synthase | Mycobacterium tuberculosis | IC50 | - | 34 µg/mL
COc1c(N2CCN(Cn3c(O)c(N=NC(N)=O)c4cc(F)ccc43)C(C)C2)c(F)cc2c(=O)c(C(=O)O)cn(C3CC3)c12 | - | - | Gyrase | Mycobacterium tuberculosis | IC50 | - | 4 µM
COc1cc(-c2[nH]ccc2Cl)oc1C1=C2C=C3C=C2[C@H](C(C)C)[C@H]1CCCCCCCC3 | - | - | Protein tyrosine phosphatase A | Mycobacterium tuberculosis | IC50 | - | >30 µM
O=C1C=CC(O)(c2nc3ccccc3s2)C=C1 | - | - | Thioredoxin reductase | Mycobacterium tuberculosis | IC50 | H37Rv | 28 µM
CC(C)c1ccc(-n2c(=O)sn(-c3ccc(SC(F)(F)F)cc3)c2=O)cc1 | HPLC | - | Alanine racemase | Mycobacterium smegmatis | IC50 | mc2155 | >100 µM

Repeating the final 4 entries:

{"compound": "COc1c(N2CCN(Cn3c(O)c(N=NC(N)=O)c4cc(F)ccc43)C(C)C2)c(F)cc2c(=O)c(C(=O)O)cn(C3CC3)c12", "protein": "Gyrase", "species": "Mycobacterium tuberculosis", "read-out": "IC50", "value": "4 µM"}
{"compound": "COc1cc(-c2[nH]ccc2Cl)oc1C1=C2C=C3C=C2[C@H](C(C)C)[C@H]1CCCCCCCC3", "protein": "Protein tyrosine phosphatase A", "species": "Mycobacterium tuberculosis", "read-out": "IC50", "value": ">30 µM"}
{"compound": "O=C1C=CC(O)(c2nc3ccccc3s2)C=C1", "protein": "Thioredoxin reductase", "species": "Mycobacterium tuberculosis", "read-out": "IC50", "strain": "H37Rv", "value": "28 µM"}
{"compound": "CC(C)c1ccc(-n2c(=O)sn(-c3ccc(SC(F)(F)F)cc3)c2=O)cc1", "read by": "HPLC", "protein": "Alanine racemase", "species": "Mycobacterium smegmatis", "read-out": "IC50", "strain": "mc2155", "value": ">100 µM"}